Taken from: PubChem BioAssay AID504761 (Drosophila RNAi Screening Center, 2011)

Test: 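Fly genes whose silencing reduces dengue virus type 2 infection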 (primary screen)
Cells: D.Mel-2 cells from Drosophila
Reagents: long dsRNA against Drosophila genes
Conditions: infection with dengue virus type 2; dose and infection time not stated
Measured: 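Per well on two replicate plates, imaging gave the percent of cells positive for viral envelope protein, ranked by infection, and a nuclear count of cells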
Scale: infection score: higher = more virus-infected cells; cell count: higher = more cells in the well
Hit rule: 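Low infection ranks in the two replicates (chance level up to 0.065) followed by a retest with a 1.5-fold or larger significant decrease, p below 0.05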
Calls: active = confirmed: knock-down lowers infection; inactive = not picked or not confirmed
The screen tested about 22,000 reagents; this is an unselected part of those that have a named target and a result. Of all reagents, 116 (0.52%) were called active. 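Calls depend on retest data that are not deposited; infection was ranked per plate without normalising between plates; the unit of the infection score is not given.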 Raw values are not corrected between plates. A plus sign joins genes that one reagent is predicted to hit. Further read-outs or replicates are left out here. Not given: the amount of reagent, the time to read-out.

Depletion of CG3088 [DRSC10352] came out at: infection score, replicate 1 = 6.86; cell count, replicate 1 = 6454; inactive.
For CG30116 [DRSC05935] the deposit lists infection score, replicate 1 = 23.3; cell count, replicate 1 = 6391; inactive.
With knock-down of CG30116 [DRSC06685], the screen gave infection score, replicate 1 = 4.68; cell count, replicate 1 = 5750; inactive.
For wupA [DRSC20385], the values are cell count, replicate 1 = 310; inactive.
With knock-down of wupA [DRSC22547], the screen gave infection score, replicate 1 = 1.64; cell count, replicate 1 = 6627; inactive.
For wupA [DRSC29330] the deposit lists cell count, replicate 1 = 323; inactive.

Laid out differently: 2 of the entries above
Gene	amplicon	infection score, replicate 1	cell count, replicate 1	call
wupA	DRSC20385		310	inactive
wupA	DRSC22547	1.64	6627	inactive

Additional entries:
Depletion of CG8419 [DRSC03087] resulted in: infection score, replicate 1 = 4.83; cell count, replicate 1 = 6254; inactive.
CG13599 [DRSC14602] showed infection score, replicate 1 = 2.54; cell count, replicate 1 = 1101; inactive.
CG13869 + CG11099 [DRSC06428] showed infection score, replicate 1 = 0.95; cell count, replicate 1 = 6445; inactive.
Knock-down of CG13869 + CG11099 [DRSC24218] came out at: infection score, replicate 1 = 6.75; cell count, replicate 1 = 6389; inactive.
After knock-down of Elk [DRSC07608] the results were infection score, replicate 1 = 11.2; cell count, replicate 1 = 6409; inactive.
With knock-down of CG7220 [DRSC05235], the screen gave infection score, replicate 1 = 1.13; cell count, replicate 1 = 6193; inactive.
CG7220 [DRSC07018] gave infection score, replicate 1 = 8.46; cell count, replicate 1 = 6947; inactive.
Against CG7220 [DRSC26138] the deposit lists infection score, replicate 1 = 4.79; cell count, replicate 1 = 6577; inactive.
